In the assay the test system is HA of H3N2. It is filed as binding, Influenza A virus H3N2 (Aic68, Fuk85).

B1: F005-126: human IgG antibody broadly neutralizing H3N2 viruses; heavy chain SEQ ID NO: 2, light chain SEQ ID NO: 13 (antibody)
heavy: QVQLVQSGAEVKKPGASVTVSCQVSGYTLTSYGLSWVRQAPGQGLEWVGWINTYDGQTKYVKKFQGRVTMTTHTGTNTAYMEMKSLRSDDTAVYYCARVEGVRGVMGFHYYPMDVWGQGTMVTVSSASTKGPSVFPLAPSSKSTSGGTAALGCLVKDYFPEPVTVSWNSGALTSGVHTFPAVLQSSGLYSLSSVVTVPSSSLGTQTYICNVNHKPSNTKVDKKV[not shown - human IgG1 Fc with changes]
light: QSVLTQPPSVSGAPGQRVTISCTGSSSNIGAGYAVHWYQQLPGTAPKLLISGNSNRPSGVPDRFSGSKSGTSASLAITGLQAEDEADYYCQSYDSSLSGSVFGGGTKLTVLGQPKAAPSVTLFPPSSEELQANKATLVCLISDFYPGAVTVAWKADSSPVKAGVETTTPSKQSNNKYAASSYLSLTPEQWKSHRSYSCQVHEGSTVEKTVAPTECSARQ
Regarding B1, the “reactivity to mutant Aic68HA/N285Y versus wild HA” value is recorded as “weaker than that of wild HA”.

The values above are taken from patent publication US20140086927A1 (priority 2012, published 2014).
